Data taken from ChEMBL document CHEMBL3988442, “University of Dundee, Small-Polar-MMV Screening Library” (2021).

Each number is a percent effect as filed.
The controls that fix the scale are not given in the record; negative values are as filed.
This is part of a subset picked to be rich in strong results.
A dash means the value is not listed here; it may have been measured.

Mtb cholesterol medium: 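Whole-cell growth test on Mycobacterium tuberculosis, read after 4 days in a medium based on cholesterol and the lipid DPPC; the read-out is not stated. Tested at 500 µM. The record gives no direction; compounds that gave an IC50 in retests scored well above the rest, so higher reads as more growth inhibition. About 18,000 compounds were tested under these conditions; 5% (about 900) showed 50% or more at least once.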
Mtb glucose medium: 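Whole-cell growth test on Mycobacterium tuberculosis, read after 3 days in glucose-containing 7H9 medium; the read-out is not stated. Concentration: 500 µM. Direction is inferred from retests: higher values go with more growth inhibition. Of about 18,000 compounds tested this way, about 1,400 (7.9%) reached 50% or more in at least one test.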

structure,Mtb cholesterol medium,Mtb glucose medium
COc1cc(C)c(NC(=O)C(C)C)cc1OC,-,-2.439
CCOc1ncccc1C(=O)NCC(C)N1CCCC1 (stereo not drawn),-,18.91
CCn1cc(C2CSCCN2)cn1 (stereo not drawn),-,2.47
COc1ccnc(NC(=O)c2sccc2OC)c1,-12.62,-0.8259
COc1ccc(F)c(F)c1CN1CCOC(CCO)C1 (stereo not drawn),2.81,-
COc1ccc(CCC(=O)N2CCCNCC2)cc1,4.786,15.9
Cc1cnc(C(=O)N2CCC(C)CC2)cn1,-,43.49
CC1=NOC(C(=O)NCCCn2nc(C)nc2C)C1 (stereo not drawn),-,13.69
CC1CN(C(=O)CCc2ccccc2)CCO1 (stereo not drawn),-,38.39
NC(=O)CCS(=O)(=O)CCN1CCOCC1,-,24.89
CCS(=O)(=O)N1CCC(C(=O)NC(C)(C)C)CC1,-,4.716
CS(=O)(=O)CC1(CNCc2cccnc2)CC1,-,-2.635
O=C(Cc1cn2ccsc2n1)NCc1ccncc1,-28,-20.77
Cc1ccsc1CNC(=O)Cn1cnc(C#N)c1C#N,-,7.847
Cc1ccnc(NC(=O)CSc2nnc(N)s2)n1,-,7.293
NCC(O)c1c(Cl)cccc1Cl (stereo not drawn),-,10.61
Cc1ccc(OC2CN(C(=O)[C@H](N)C(C)C)C2)cc1,45.67,54.26
Nc1[nH]nc(C(=O)N2CC(N3CCCCC3)C2)c1Cl,-,-0.6228
C[C@@H]1CNC[C@H]1C(=O)N1CCOCC1,5.692,-
NCCC1CN(Cc2cc3ccccc3s2)CCO1 (stereo not drawn),61.99,73.14
COCCCNC(=O)c1ccn(-c2ccc(F)cc2)n1,62.01,57.55
CCCc1cc(N)[nH]n1,12.6,27.31
OC1(CNCCCn2ncc3ccccc32)CCNC1 (stereo not drawn),-,18.7
CC1c2ccsc2CCN1C(=O)c1ccn(C)c(=O)c1 (stereo not drawn),-,24.64
CNC1CCN(C(C)c2ccccn2)CC1 (stereo not drawn),-,-0.6144
CNC(=O)C1CN(C(=O)Nc2cccc(C)c2)CCO1 (stereo not drawn),-,4.856
O=C(NC1CCN(C2CC2)CC1)c1cncc(Br)c1,-6.748,-
CCC(=O)NC1CCCc2nc(N(C)C)ncc21 (stereo not drawn),-29.64,-
CN(C)CC(=O)Nc1ccc(S(N)(=O)=O)cc1,-11.87,-
CC1CCCN(CC(=O)Nc2ccc3c(c2)OCO3)C1 (stereo not drawn),-24.97,6.916
COc1ccnc(CN(C)CC2CCOCC2)c1OC,-,-3.815
COCCNC(=O)COc1cc(Cl)ccc1C(=O)OC,-,24.98
CC(C)Nc1ncccc1C(=O)Nc1nncs1,55.95,-0.3607
O=C1C2CSCC1CN(Cc1ccccc1)C2,-,1.775
CC(C)N(C)C(=O)c1nccn1C,-,-5.27
CCCC(NC(C)=O)C(=O)N(C)Cc1cc[nH]n1 (stereo not drawn),0.05683,-
O=S1(=O)CCN(Cc2nccn2C2CC2)CC1,-,-10.59
CNCCc1ccc(C#N)cc1,-,17.62
CO[C@@H]1COCC[C@H]1NC(=O)CCCn1cncn1,11.63,-
NCC1CSc2ccccc21 (stereo not drawn),-,16.94
O=C(Cc1ccc(O)cc1)NC1CCNCC1,-,-5.731
CCC1CN(C(=O)Cn2cc(C)c(=O)[nH]c2=O)CCN1 (stereo not drawn),-,13.85
Cc1oc(C)c(S(N)(=O)=O)c1C(=O)Nc1ccccc1,-,21.87
COC(=O)c1cnc(I)n1C,-,16.39
CCCN(CCC(=O)NC(=O)NC)CC1CCCCO1 (stereo not drawn),101,101.8
CS(=O)(=O)NCC(=O)N1CCCC1C1CCCC1 (stereo not drawn),-,30.43
N#CCCN1CCN(Cc2ccc(C#N)cc2)CC1,-,20.02
Oc1cccc(C2CNCCO2)c1 (stereo not drawn),-,23.92
CC(C#N)Sc1nnnn1Cc1cccs1 (stereo not drawn),-,35.33
Cc1cccc2[nH]c(CN)nc12,36.26,48
COc1cc(OC)cc(N2CCCNCC2)c1,60.54,71.57
CC(CN)N1CCN(C)CC1 (stereo not drawn),-,14.18
c1coc(C2CCNCC2)n1,-12.23,-
CC(c1ccon1)N(C)C(=O)c1cccc(N)n1 (stereo not drawn),-6.159,-2.205
Cc1ccncc1S(N)(=O)=O,-,9.524
CCn1cnnc1CCNC(=O)c1cnn(C(C)C)c1,-,5.935
CCCn1nnnc1CN(C)C(C)(C)C(=O)OCC,-,19.79
CC(C)CC1CCN(C(=O)CCn2cnnn2)C1 (stereo not drawn),76.27,70.8
CS(=O)(=O)Cc1ccccc1NCc1ccsc1,67.35,64.2
Cc1nc(C2CC(O)C2)cc(N2CC[C@@H](O)C2)n1 (stereo partly drawn),-,16.41
CCN1CC(c2nc3ccccc3[nH]2)CC1=O (stereo not drawn),52.59,56.88
NS(=O)(=O)CC1CCN(c2ncc(Br)cn2)CC1,88.88,78.36
CN(Cc1ccccc1)C(=O)C1CCNCC1,12.37,9.937
COCCC(=O)Nc1ccc(OCC(F)(F)F)nc1,25.77,39.96
NCCS(=O)(=O)Cc1ccccc1,-,6.627
CN(C)C(=O)NCCc1ccc(F)cc1,-0.5082,-
CC(=O)c1cc(CN2CC(N3CCOCC3)C2)cs1,1.989,-
NC(CO)c1ccc(F)cc1F (stereo not drawn),-,3.52
COc1ccc(Cl)cc1NC(=O)CN(C)CC(N)=O,-,15.88
CCC(CC)C(=O)NCc1ccncc1,-,26.96
CC1(CNC(=O)c2ccc3c(c2)OCCO3)CCOC1 (stereo not drawn),-4.456,-
CC(=O)c1ccc(C(C)(C)O)cc1,-,4.058
CCOc1ccc2[nH]c(C(C)O)nc2c1 (stereo not drawn),-,-4.087

6 of the entries, repeated:

structure,Mtb cholesterol medium,Mtb glucose medium
Cc1cccc2[nH]c(CN)nc12,36.26,48
COCCC(=O)Nc1ccc(OCC(F)(F)F)nc1,25.77,39.96
CCn1cnnc1CCNC(=O)c1cnn(C(C)C)c1,-,5.935
NCCS(=O)(=O)Cc1ccccc1,-,6.627
NCC(O)c1c(Cl)cccc1Cl (stereo not drawn),-,10.61
COCCNC(=O)COc1cc(Cl)ccc1C(=O)OC,-,24.98